Values quoted from earlier work as cited in publication PMC11956011, “An Amazing 30-Year Journey around the DABO Family: A Medicinal Chemistry Lesson on a Versatile Class of Non-nucleoside HIV-1 Reverse Transcriptase Inhibitors” (Journal of Medicinal Chemistry, 2025).

Tested on: Y181I HIV-1 RT
Settings: Fig 5

Compound	ID50: Y181I [µM]
CC(c1cc(=O)[nH]c(SC2CCCC2)n1)c1c(F)cccc1Cl (centres unmarked) [compound 40]	16.6
CCCCSc1nc(C(C)c2c(F)cccc2Cl)cc(=O)[nH]1 (centres unmarked) [compound 39]	15.2
